Km data for two substances are collected here from publication PMC3879392.

This series has as its system Nc1ncnc2c1ncn2[C@@H]1O[C@H](COP(=O)(O)OP(=O)(O)OP(=O)(O)O)[C@@H](O)[C@H]1O. Briefly: purified protein. The note with it: 25 mM MES-Tris pH 6.5, 4 mM MgSO4, 10% glycerol, 25 C.

As usually defined, the Km is the substrate concentration at which the rate is half of its maximum. Turning to “E. hirae V1-ATPase (A3B3DF complex) (Enterococcus hirae ATCC 9790; Q08636:L476A/Q08636:V477A)”, for the setting “A3B3 reconstituted with AMP-PNP”, the Km worked out at 450 µM.
In the case of “E. hirae V1-ATPase (A3B3DF complex) (Enterococcus hirae ATCC 9790; Q08636:L476A/Q08637:L389A)”, the Km was 270 µM.
